Reference: patent publication US8232271B2 (priority 2008, dated 2012)

Biological target: HCV polymerase (NS5B570n-Con1) (Hepatitis C virus genotype 1b, UniProt Q9WMX2)
Experiment: HCV NS5B RNA polymerase activity assay
Type: biochemical, HCV Con1 strain
Details: read-out: IC50 NS5B polymerase assay (Example 33)
Experimental: The enzymatic activity of HCV polymerase (NS5B570n-Con1) was measured as the incorporation of radiolabeled nucleotide monophosphates into acid insoluble RNA products. Unincorporated radiolabeled substrate was removed by filtration and scintillant was added to the washed and dried filter plate containing radiolabeled RNA product. The amount of RNA product generated by NS5B570-Con1 at the end of the reaction was directly proportional to the amount of light emitted by the scintillant.
The N-terminal 6-histidine tagged HCV polymerase, derived from HCV Con1 strain, genotype 1b (NS5B570n-Con1) contains a 21 amino acid deletion at the C-terminus relative to the full-length HCV polymerase and was purified from E. coli strain BL21(DE) pLysS. The construct, containing the coding sequence of HCV NS5B Con1 (GenBank accession number AJ242654) was inserted into the plasmid construct pET17b, downstream of a T7 promoter expression cassette and transformed into E. coli. A single colony was grown overnight as a starter culture and later used inoculate 10 L of LB media supplemented with 100 μg/mL ampicillin at 37° C. Protein expression was induced by the addition of 0.25 mM isopropyl-β-D-thiogalactopyranoside (IPTG) when optical density at […] of the culture was between 0.6 and 0.8 and cells were harvested after 16 to 18 h at 30° C. NS5B570n-Con1 was purified to homogeneity using a three-step protocol including subsequent column chromatography on Ni-NTA, SP-Sepharose HP and Superdex 75 resins.
Each 50 μl enzymatic reaction contained 20 nM RNA template derived from the complementary sequence of the Internal Ribosome Entry Site (cIRES), 20 nM NS5B570n-Con1 enzyme, 0.5 μCi of tritiated UTP (Perkin Elmer catalog no. TRK-412; specific activity: 30 to 60 Ci/mmol; stock solution concentration from 7.5×10^-5 M to 20.6×10^-6 M), 1 μM each ATP, CTP, and GTP, 40 mM Tris-HCl pH 8.0, 40 mM NaCl, 4 mM DTT (dithiothreitol), 4 mM MgCl2, and 5 μl of compound serial diluted in DMSO. Reaction mixtures were assembled in 96-well filter plates (cat #MADVN0B, Millipore Co.) and incubated for 2 h at 30° C. Reactions were stopped by addition of 10% final (v/v) trichloroacetic acid and incubated for 40 min at 4° C. […]
The amount of light emitted from the scintillant was converted to counts per minute (CPM) on a Topcount® plate reader (Perkin-Elmer, Energy Range: Low, Efficiency Mode: Normal, Count Time: 1 min, Background Subtract: none, Cross talk reduction: Off).
Data was analyzed in Excel® (Microsoft®) and ActivityBase® (Idbs®). […] All data was expressed as a percentage of the positive control. […]

| SMILES | IC50 [µM] |
| --- | --- |
| COc1cc(CN(CC2CCC2)S(=O)(=O)C(C)C)c(-c2ccc[nH]c2=O)cc1C(C)(C)C | 0.131 |
| CCCCN(Cc1cc(OC)c(C(C)(C)C)cc1-c1ccc[nH]c1=O)S(C)(=O)=O | 0.086 |
| COc1cc(CNC(=O)c2ccccc2)c(-c2ccc[nH]c2=O)cc1C(C)(C)C | 0.019 |
| COc1cc(CNC(=O)[C@H]2C[C@H](NS(C)(=O)=O)CN2)c(-c2ccc[nH]c2=O)cc1C(C)(C)C | 0.169 |
